PubChem BioAssay AID504761 | Drosophila RNAi Screening Center – 2011
The screen tested about 22,000 reagents; this is a random part of those with a known target gene and a result. Over the whole deposit, 116 (0.52%) are marked active. 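Calls depend on retest data that are not deposited; infection was ranked per plate without normalising between plates; the unit of the infection score is not given.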 Raw values vary from plate to plate and are shown uncorrected. A number with no mark means an inactive call. No sequences are given here. Not given: the amount of reagent, the time to read-out.

Aim: 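Genome-wide fly cell screen for genes dengue virus requires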 (primary screen)
Cell system: D.Mel-2 cells from Drosophila
Reagents: long dsRNA against Drosophila genes
Challenge: infection with dengue virus type 2; dose and infection time not stated
Detection: 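Cells stained for dengue envelope protein and imaged; percent of infected cells per well on duplicate plates, ranked by infection, with stained nuclei counted for cell number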
Reading the numbers: infection score: higher = more virus-infected cells; cell count: higher = more cells in the well
Hit rule: 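Low infection ranks in the two replicates (chance level up to 0.065) followed by a retest with a 1.5-fold or larger significant decrease, p below 0.05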
Meaning of the calls: active = confirmed: knock-down lowers infection; inactive = not picked or not confirmed

Mur89F (Mucin related 89F) [DRSC15544] — infection score, replicate 1: 2.97; infection score, replicate 2: 13; cell count, replicate 1: 6598; cell count, replicate 2: 6624
Mur89F (Mucin related 89F) [DRSC25291] — infection score, replicate 1: 5.13; infection score, replicate 2: 4.41; cell count, replicate 1: 6858; cell count, replicate 2: 6509
Cmpk (Cytidine/uridine monophosphate kinase 1) [DRSC16643] — infection score, replicate 1: 1.44; infection score, replicate 2: 4.65; cell count, replicate 1: 6397; cell count, replicate 2: 6254
arx (asterix) [DRSC10386] — infection score, replicate 1: 6.27; infection score, replicate 2: 26.2; cell count, replicate 1: 6349; cell count, replicate 2: 5313
CG42340 [DRSC17458] — infection score, replicate 1: 3.67; infection score, replicate 2: 11.4; cell count, replicate 1: 5946; cell count, replicate 2: 6209
CG42340 [DRSC17841] — infection score, replicate 1: 3.15; infection score, replicate 2: 2.05; cell count, replicate 1: 5455; cell count, replicate 2: 6042
CG42340 [DRSC18305] — infection score, replicate 1: 26.4; infection score, replicate 2: 19.8; cell count, replicate 1: 4973; cell count, replicate 2: 3462
CG42340 [DRSC21619] — infection score, replicate 1: 8.48; infection score, replicate 2: 7.06; cell count, replicate 1: 6095; cell count, replicate 2: 5995
CG42340 [DRSC23657] — infection score, replicate 1: 5.77; infection score, replicate 2: 4.04; cell count, replicate 1: 6478; cell count, replicate 2: 6330
Atg10 (Autophagy-related 10) [DRSC06172] — infection score, replicate 1: 14.3; infection score, replicate 2: 17.4; cell count, replicate 1: 5656; cell count, replicate 2: 5144
mRpS6 (mitochondrial ribosomal protein S6) [DRSC08470] — infection score, replicate 1: 1.21; infection score, replicate 2: 0.43; cell count, replicate 1: 5779; cell count, replicate 2: 5787
mRpS6 (mitochondrial ribosomal protein S6) [DRSC29280] — infection score, replicate 1: 14; infection score, replicate 2: 14.8; cell count, replicate 1: 5128; cell count, replicate 2: 4202

Records above whose target name begins with M or m:
Mur89F (Mucin related 89F) [DRSC15544] — infection score, replicate 1: 2.97; infection score, replicate 2: 13; cell count, replicate 1: 6598; cell count, replicate 2: 6624
Mur89F (Mucin related 89F) [DRSC25291] — infection score, replicate 1: 5.13; infection score, replicate 2: 4.41; cell count, replicate 1: 6858; cell count, replicate 2: 6509
mRpS6 (mitochondrial ribosomal protein S6) [DRSC08470] — infection score, replicate 1: 1.21; infection score, replicate 2: 0.43; cell count, replicate 1: 5779; cell count, replicate 2: 5787
mRpS6 (mitochondrial ribosomal protein S6) [DRSC29280] — infection score, replicate 1: 14; infection score, replicate 2: 14.8; cell count, replicate 1: 5128; cell count, replicate 2: 4202

The results go on.
fs(1)M3 (female sterile (1) M3) [DRSC18381] — infection score, replicate 1: 2.29; infection score, replicate 2: 5.13; cell count, replicate 1: 6629; cell count, replicate 2: 6825
fs(1)M3 (female sterile (1) M3) [DRSC29155] — infection score, replicate 1: 0.26; infection score, replicate 2: 20.8; cell count, replicate 1: 385; cell count, replicate 2: 6193
CG14054 [DRSC17909] — infection score, replicate 1: 10.6; infection score, replicate 2: 8.05; cell count, replicate 1: 5380; cell count, replicate 2: 1999
CG15034 [DRSC17966] — infection score, replicate 1: 9.27; infection score, replicate 2: 8.29; cell count, replicate 1: 6030; cell count, replicate 2: 6481
nemy (no extended memory) [DRSC05357] — infection score, replicate 1: 1.69; infection score, replicate 2: 3.57; cell count, replicate 1: 5728; cell count, replicate 2: 5239
nemy (no extended memory) [DRSC07262] — infection score, replicate 1: 15; infection score, replicate 2: 18.6; cell count, replicate 1: 6152; cell count, replicate 2: 6626
nemy (no extended memory) [DRSC26532] — infection score, replicate 1: 3.05; infection score, replicate 2: 2.77; cell count, replicate 1: 5764; cell count, replicate 2: 6215
CG17010 [DRSC02559] — infection score, replicate 1: 25.9; infection score, replicate 2: 15.4; cell count, replicate 1: 6901; cell count, replicate 2: 6301
CG17010 [DRSC29558] — infection score, replicate 2: 29.3; cell count, replicate 1: 340; cell count, replicate 2: 4918
